Experimental data published in patent US20090297520A1.

T1: human Kv1.1 channel (human), Q09470
T1 chain: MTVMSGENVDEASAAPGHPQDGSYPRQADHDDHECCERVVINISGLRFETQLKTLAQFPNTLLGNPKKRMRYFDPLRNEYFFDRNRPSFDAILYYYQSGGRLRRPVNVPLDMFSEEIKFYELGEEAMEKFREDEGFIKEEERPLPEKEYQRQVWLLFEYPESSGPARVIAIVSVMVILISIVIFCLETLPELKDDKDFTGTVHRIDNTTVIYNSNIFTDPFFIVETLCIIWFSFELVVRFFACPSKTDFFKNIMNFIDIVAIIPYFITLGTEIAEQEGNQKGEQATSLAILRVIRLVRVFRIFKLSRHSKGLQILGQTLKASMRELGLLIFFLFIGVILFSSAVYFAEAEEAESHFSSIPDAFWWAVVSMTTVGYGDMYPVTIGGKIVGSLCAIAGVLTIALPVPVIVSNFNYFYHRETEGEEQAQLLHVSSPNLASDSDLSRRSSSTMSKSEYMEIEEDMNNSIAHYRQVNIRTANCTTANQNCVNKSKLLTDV


Target: T1, human Kv1.1 channel (human), Q09470
Assay: cell-based or functional assay

Row | Binder | Kv1.1 (IC50, pM) [pM]
1 | GVIINVKCKISRQCLEPCKKAAMRFGKCMNGKCHCTPK (modifications not checked) [OSK1 Alanine analog G22A] | > 3000
2 | GVIINVKCKISRQCLEPCKKAGMRFGACMNGKCHCTPK (modifications not checked) [OSK1 Alanine analog K27A] | > 3000
3 | GVIINVKCKISRQCLEPCKKAGMRFGKCMAGKCHCTPK (modifications not checked) [OSK1 Alanine analog N30A] | > 3000

Target: human Kv1.3 (human), P22001
Assay: cell-based or functional assay

Row | Binder | Kv1.3 (IC50, pM), whole cell patch clamp ePhys [pM]
4 | GVIINVKCKIRRQCLEPCKKAGMRFGKCMNGKCHCTPK (modifications not checked) [OSK1 analogue S11R] | 40

Target: human Kv1.3 channel (human), P22001
Assay: cell-based or functional assay

Row | Binder | Analog IC50 divided by Ala-1 IC50, IFNg | Analog IC50 divided by Ala-1 IC50, IL2 | Average IC50 (nM) IL-2, thapsigargin induced, 50% human whole blood [nM] | Kv1.3 (IC50, pM) [pM] | WB/IL-2 (IC50, pM) [pM] | WB/IFNg (IC50, pM) [pM]
5 | GVAINVKCKISRQCLEPCKKAGMRFGKCMNGKCHCTPK (modifications not checked) [OSK1 analog Ala-3 (SEQ ID No: 1402)] | 0.83 | 0.72 |  |  |  | 
6 | GVIANVKCKISRQCLEPCKKAGMRFGKCMNGKCHCTPK (modifications not checked) [OSK1 analog Ala-4 (SEQ ID No: 1403)] | 0.73 | 0.91 |  |  |  | 
7 | GVIIAVKCKISRQCLEPCKKAGMRFGKCMNGKCHCTPK (modifications not checked) [OSK1 analog Ala-5 (SEQ ID No: 1404)] | 0.56 | 0.56 |  |  |  | 
8 | GVIINAKCKISRQCLEPCKKAGMRFGKCMNGKCHCTPK (modifications not checked) [OSK1 analog Ala-6 (SEQ ID No: 1405)] | 0.67 | 0.6 |  |  |  | 
9 | GVIINVACKISRQCLEPCKKAGMRFGKCMNGKCHCTPK (modifications not checked) [OSK1 analog Ala-7 (SEQ ID No: 1406)] | 0.49 | 0.55 |  |  |  | 
10 | GVIINVKCAISRQCLEPCKKAGMRFGKCMNGKCHCTPK (modifications not checked) [OSK1 analog Ala-9 (SEQ ID No: 1407)] | 0.6 | 0.65 |  |  |  | 
11 | GVIINVKCKASRQCLEPCKKAGMRFGKCMNGKCHCTPK (modifications not checked) [OSK1 analog Ala-10 (SEQ ID No: 1408)] | 0.25 | 0.41 | 0.05 |  |  | 
12 | GVIINVKCKISAQCLEPCKKAGMRFGKCMNGKCHCTPK (modifications not checked) [OSK1 analog Ala-12 (SEQ ID No: 1410)] | 1.3 | 1.01 |  |  |  | 
13 | GVIINVKCKISRACLEPCKKAGMRFGKCMNGKCHCTPK (modifications not checked) [OSK1 analog Ala-13 (SEQ ID No: 1411)] | 1.11 | 1.21 |  |  |  | 
14 | GVIINVKCKISRQCAEPCKKAGMRFGKCMNGKCHCTPK (modifications not checked) [OSK1 analog Ala-15 (SEQ ID No: 1412)] | 0.9 | 0.88 |  |  |  | 
15 | GVIINVKCKISRQCLAPCKKAGMRFGKCMNGKCHCTPK (modifications not checked) [OSK1 analog Ala-16 (SEQ ID No: 1413)] | 0.84 | 0.83 |  |  |  | 
16 | GVIINVKCKISRQCLEACKKAGMRFGKCMNGKCHCTPK (modifications not checked) [OSK1 analog Ala-17 (SEQ ID No: 1414)] | 1.45 | 1.42 |  |  |  | 
17 | GVIINVKCKISRQCLEPCAKAGMRFGKCMNGKCHCTPK (modifications not checked) [OSK1 analog Ala-19 (SEQ ID No: 1415)] | 1.36 | 1.33 |  |  |  | 
18 | GVIINVKCKISRQCLEPCKAAGMRFGKCMNGKCHCTPK (modifications not checked) [OSK1 analog Ala-20 (SEQ ID No: 1416)] | 3.17 | 3.11 |  |  |  | 
19 | GVIINVKCKISRQCLEPCKKAAMRFGKCMNGKCHCTPK (modifications not checked) [OSK1 analog Ala-22 (SEQ ID No: 1418)] | 59.3 | 58.1 |  |  |  | 
20 | GVIINVKCKISRQCLEPCKKAGARFGKCMNGKCHCTPK (modifications not checked) [OSK1 analog Ala-23 (SEQ ID No: 1419)] | 2.3 | 2.25 |  |  |  | 
21 | GVIINVKCKISRQCLEPCKKAGMRAGKCMNGKCHCTPK (modifications not checked) [OSK1 analog Ala-25 (SEQ ID No: 1421)] | 25.8 | 25.2 |  |  |  | 
22 | GVIINVKCKISRQCLEPCKKAGMRFGACMNGKCHCTPK (modifications not checked) [OSK1 analog Ala-27 (SEQ ID No: 1423)] | 13.2 | 28.3 |  |  |  | 
23 | GVIINVKCKISRQCLEPCKKAGMRFGKCANGKCHCTPK (modifications not checked) [OSK1 analog Ala-29 (SEQ ID No: 1424)] | 2.44 | 3.66 |  |  |  | 

Row | Binder | Analog IC50 divided by Ala-1 IC50, IFNg | Analog IC50 divided by Ala-1 IC50, IL2 | Average IC50 (nM) IL-2, thapsigargin induced, 50% human whole blood [nM] | Kv1.3 (IC50, pM) [pM] | WB/IL-2 (IC50, pM) [pM] | WB/IFNg (IC50, pM) [pM]
24 | GVIINVKCKISRQCLEPCKKAGMRFGKCMAGKCHCTPK (modifications not checked) [OSK1 analog Ala-3O (SEQ ID No: 1425)] | 5.33 | 7.96 |  |  |  | 
25 | GVIINVKCKISRQCLEPCKKAGMRFGKCMNGKCACTPK (modifications not checked) [OSK1 analog Ala-34 (SEQ ID No: 1428)] | 0.48 | 0.59 |  |  |  | 
26 | GVIINVKCKISPQCLKPCKDAGIRFGKCINGKCACTPK (modifications not checked) [OSK1 analog Pro-12, Lys-16, Asp-20, Ile-23, Ile-29, Ala-34 (SEQ ID No: 1393)] | 4.29 | 4.21 |  |  |  | 
27 | AVIINVKCKISRQCLEPCKKAGMRFGKCMNGKCHCTPK (modifications not checked) [OSK1 Alanine analog G1A] |  |  |  | 41.1 |  | 
28 | GVIINVKCKASRQCLEPCKKAGMRFGKCMNGKCHCTPK (modifications not checked) [OSK1 Alanine analog I10A] |  |  |  |  | 50 | 
29 | GVIINVKCKIARQCLEPCKKAGMRFGKCMNGKCHCTPK (modifications not checked) [OSK1 Alanine analog S11A] |  |  |  |  | 90 | 
30 | GVIINVKCKISRQCLEPCKKAAMRFGKCMNGKCHCTPK (modifications not checked) [OSK1 Alanine analog G22A] |  |  |  | > 3000 |  | 
31 | GVIINVKCKISRQCLEPCKKAGMAFGKCMNGKCHCTPK (modifications not checked) [OSK1 Alanine analog R24A] |  |  |  | > 3000 |  | 
32 | GVIINVKCKISRQCLEPCKKRGMRFGKCMNGKCHCTPK (modifications not checked) [OSK1 Arginine analog A21R] |  |  |  |  | 90 | 
33 | GVIINVKCKISRQCLEPCKKAGMRFRKCMNGKCHCTPK (modifications not checked) [OSK1 Arginine analog G26R] |  |  |  |  |  | 100000
34 | GVIINVKCKISRQCLEPCKKAGMRFGKCRNGKCHCTPK (modifications not checked) [OSK1 Arginine analog M29R] |  |  |  | 200 |  | 
35 | GVIINVKCKISRQCLEPCKKAGMRFGKCMNGKCHCRPK (modifications not checked) [OSK1 Arginine analog T36R] |  |  |  |  |  | 10000
36 | GVIINVKCKISRQCLEPCKKAGMRFGKCMNGKCHCTPR (modifications not checked) [OSK1 Arginine analog K38R] |  |  |  |  |  | 40
37 | GVIIEVKCKISRQCLEPCKKAGMRFGKCMNGKCHCTPK (modifications not checked) [OSK1 Glutamic Acid analog N5E] |  |  |  |  | 100 | 
38 | GVIINVKCKISEQCLEPCKKAGMRFGKCMNGKCHCTPK (modifications not checked) [OSK1 Glutamic Acid analog R12E] |  |  |  |  |  | 2000
39 | GVIINVKCKISRQCLEPCKKAGMRFEKCMNGKCHCTPK (modifications not checked) [OSK1 Glutamic Acid analog G26E] |  |  |  |  | 100000 | 100000
40 | AVIINVKCKISRQCLEPCKKAGMRFGKCMNGKCHCTPK (modifications not checked) [OSK1 analog Ala-1 (SEQ ID No: 1400)] | 1 | 1 |  |  |  | 
41 | GAIINVKCKISRQCLEPCKKAGMRFGKCMNGKCHCTPK (modifications not checked) [OSK1 analog Ala-2 (SEQ ID No: 1401)] | 0.87 | 0.72 |  |  |  | 
